Test system: Echovirus 11
Experiment: Post-infection CPE inhibition assay (crystal violet)
Type: cell-based, Echovirus 11 lineage 1
Details: CC50 by MTS / EC50 by CPE inhibition, VERO 76 cells

SMILES | Selectivity Index (SI = CC50/EC50)
O=P(O)(O)OC1CC(n2cnc3c(Cl)ncnc32)C2ON=C(c3c4ccccc4c(Br)c4ccccc34)C12 (centres unmarked) [4b] | 2.31
O=P(O)(O)OC1CC(n2cnc3c(Cl)ncnc32)C2C(c3c4ccccc4c(Br)c4ccccc34)=NOC12 (centres unmarked) [4a] | 8.99

Reference: article PMC12734540, “Unraveling the Potential Antiviral Activity of Isoxazoline-Carbocyclic Monophosphate Nucleotides Against Echovirus 11” (Microorganisms, 2025)
